Compound potency records, mixed from different reports. Data source: NIAID ChemDB in PubChem.

Shared fields: whole-cell or culture tests; organism: HIV-1; cell line: PBMC; endpoint: EC50

ECn is the concentration giving n% inhibition of infection, replication or growth. Neighbouring rows are from separate reports. An empty or dashed field is not shown. Two numbers with a dash give a range or band.

SMILES | strain or isolate | changes | read by | setting | value
C=CCN(C(=O)OCc1ccc([N+](=O)[O-])cc1)C1CCN(CCC(CN(C)S(=O)(=O)c2ccccc2)c2ccccc2)CC1 | YU-2 (M-tropic) | - | p24 | - | <0.2 µM
Cc1cccc(C)c1C(=O)N1CCC(N2CCN([C@@H](C)c3ccc(Cc4ccc5c(c4)OCO5)cc3)[C@@H](C)C2)CC1 | US-1 | - | - | - | 0.008 µM
O=c1[nH]cc(F)c(=O)[nH]1 | ERS104pre | - | p24 | - | >2 µM
Cc1ccnc2c1NC(=O)c1cccnc1N2C1CC1 | IIIB Subtype B | - | p24 | - | 0.01 µM
Cc1cccc(C)c1OCC(=O)N[C@@H](Cc1ccccc1)[C@@H](O)C[C@H](Cc1ccccc1)NC(=O)[C@H](C(C)C)N1CCCNC1=O | - | - | p24 | multidrug-resistant | >1 µM
Cc1ncnc(C)c1C(=O)N1CCC(C)(N2CCN([C@@H](Cc3ccccc3)c3ccc(C(F)(F)F)cc3)[C@@H](C)C2)CC1 | RU570 Clinical isolates | - | - | - | <0.004 µM
O=c1ccn(Cc2ccccc2)c(=O)n1-c1ccccc1 | IIIB | - | - | - | >216 µM
Cc1cn([C@H]2C[C@H](N=[N+]=[N-])[C@@H](COC(=O)C(=O)O)O2)c(=O)[nH]c1=O | - | - | - | - | 0.025 µg/mL
Nc1ccn([C@@H]2C[Se][C@H](CO)O2)c(=O)n1 | LAV | - | RT activity | - | >100 µM
Nc1ncnc2c1ncn2CCOCP(=O)(O)O | LAI | - | MTT | - | 4.3 µM
Oc1cccc(-c2c3nc(c(-c4cccc(O)c4)c4ccc([nH]4)c(-c4cccc(O)c4)c4nc(c(-c5cccc(O)c5)c5ccc2[nH]5)C=C4)C=C3)c1 | LAV | - | RT activity | - | 5.4 µM
S=C(NCCCn1ccnc1)Nc1nccs1 | A17 | RT-K103N Y181C | p24 | - | >100 µM
Cc1cn([C@H]2C[C@H](N=[N+]=[N-])[C@@H](CO)O2)c(=O)[nH]c1=O | - | - | cytopathic effect / MTT | - | 0.004 µM
Fc1cccc(F)c1[C@H]1SCc2nc3ccccc3n21 | IIIB | - | RT activity | - | 0.55 µM
Cc1cn([C@H]2C[C@H](N=[N+]=[N-])[C@@H](CO)O2)c(=O)[nH]c1=O | - | - | p24 / ELISA | - | 0.02 µM
CC(C)(C)C(=O)SCCOP(=O)(OCCSC(=O)C(C)(C)C)OC[C@H]1CC[C@@H](n2cnc3c(N)ncnc32)O1 | - | - | - | - | 0.002 µM
Cc1cn([C@H]2C[C@H](N=[N+]=[N-])[C@@H](CO)O2)c(=O)[nH]c1=O | LAV | - | RT activity | - | 0.002 µM
Cc1cn([C@H]2C[C@H]3COC[C@H]3O2)c(=O)[nH]c1=O | LAV | - | RT activity | - | >100 µM
O=c1ccn(Cc2c(F)cccc2F)c(=O)[nH]1 | IIIB | - | - | - | >197 µM
C=CCN(C(=O)OCc1ccccc1)C1CCN(CCC(CN(C)S(=O)(=O)c2ccccc2)c2ccccc2)CC1 | YU-2 (M-tropic) | - | p24 | - | <0.8 µM
CCO/N=C(\c1ccc(Br)cc1)C1CCN(C2(C)CCN(C(=O)c3c(C)cc[n+]([O-])c3C)CC2)CC1 | BaL | - | p24 / ELISA | - | 0.0068 µM
CC(C)(C)NC(=O)[C@@H]1C[C@@H]2CCCC[C@@H]2CN1C[C@@H](O)[C@H](Cc1ccccc1)NC(=O)[C@H](CC(N)=O)NC(=O)c1ccc2ccccc2n1 | Isolate A PR L10V/T12I/G16E/R57K/I64V | PR-L10V T12I G16E R57K I64V | p24 | - | <0.025 µM
Cc1cc(C)cc(Cn2c(=O)ccn(CCc3ccccc3)c2=O)c1 | IIIB | - | - | - | 6.22 µM
Cc1ccc(CCNC(=S)Nc2ccc(Br)cn2)cc1 | IIIB | - | p24 | - | 0.007 µM
COc1cc(Cn2c(=O)ccn(CC#N)c2=O)cc(OC)c1OC | IIIB | - | - | - | >377 µM
Cn1cnc2c(NCc3ccccc3)nc(NCCO)nc21 | UG/92/029 SI CLADE A | - | p24 | - | >10 µM
CN(CC(C)(CCN1CCC(N(CC(O)CO)C(=O)OCc2ccccc2)CC1)c1ccccc1)S(=O)(=O)c1ccccc1 | YU-2 (M-tropic) | - | p24 | - | >6.3 µM
NC(=O)c1cc2c(-c3ccc4c(c3)CCO4)cncc2s1 | 92UG005 | - | p24 / ELISA | - | 0.0708 µM
CCC[C@@]1(CCc2ccccc2)CC(O)=C([C@H](CC)c2cccc(NS(=O)(=O)c3ccc(C(F)(F)F)cn3)c2)C(=O)O1 | 14aPre WT | - | p24 | - | 0.06 µM
Cc1cc(C)cc(Cn2c(=O)ccn(Cc3c(F)cccc3F)c2=O)c1 | IIIB | - | - | - | 0.115 µM
CC1CNC(=O)c2ccccc2SSc2ccccc2C(=O)N1 | IIIB | - | - | - | 1.8–6.5 µg/mL
NC[C@H](Cl)[C@@H](O)c1csc(N)n1 | BaL | - | RT activity | - | 100 µM
Cc1cc(C)c(Cn2c(=O)ccn(CC#N)c2=O)c(C)c1 | IIIB | - | - | - | 192 µM
Oc1ccc(-c2c3nc(c(-c4ccc(O)cc4)c4ccc([nH]4)c(-c4ccc(O)cc4)c4nc(c(-c5ccc(O)cc5)c5ccc2[nH]5)C=C4)C=C3)cc1 | LAV | - | RT activity | - | 0.8 µM
O=C1N(Cc2ccc(CO)cc2)[C@H](Cc2ccccc2)[C@H](O)[C@@H](O)[C@@H](Cc2ccccc2)N1Cc1ccc(CO)cc1 | Isolate A PR L10V/T12I/G16E/R57K/I64V | PR-L10V T12I G16E R57K I64V | p24 | - | <0.2 µM
Nc1nc2c(ncn2[C@H]2CC[C@@H](CO)O2)c(=O)[nH]1 | LAV | - | RT activity | - | 1.06–2.16 µM
O=C(O)CSc1ccc2c(c1)c(=O)c1ccccc1n2C1CC1 | LAV | - | - | - | >100 µM
CCc1cn([C@H]2CC[C@@H](CO)O2)c(=O)[nH]c1=O | LAV | - | RT activity | - | 4.9 µM
CC(C)Nc1nc(N)nc2c1ncn2[C@H]1CO[C@@H](CO)O1 | LAI | - | RT activity | - | 5.4 µM
Cc1c(N)nc([C@H](CC(N)=O)NC[C@H](N)C(N)=O)nc1C(=O)N[C@H](C(=O)N[C@H](C)[C@@H](O)[C@H](C)C(=O)N[C@H](C(=O)NCCc1nc(-c2nc(C(=O)NCCC[S+](C)C)cs2)cs1)[C@@H](C)O)C(O[C@@H]1O[C@@H](CO)[C@@H](O)[C@H](O)[C@@H]1O[C@H]1O[C@H](CO)[C@@H](O)[C@H](OC(N)=O)[C@@H]1O)c1cnc[nH]1 | Recombinant 3TC/AZT-resistant | RT-M41L M184V T215Y | p24 | - | 0.28 µM
CC(C)Nc1cccnc1N1CCN(C(=O)c2cc3cc(NS(C)(=O)=O)ccc3[nH]2)CC1 | JR-CSF | - | p24 | - | 0.008 µM
Cc1cn([C@H]2C[C@H](N=[N+]=[N-])[C@@H](CO)O2)c(=O)[nH]c1=O | IIIB | - | p24 | - | 0.0053 µM
CC(C)CN(C[C@@H](O)[C@H](Cc1ccccc1)NC(=O)O[C@H]1CCOC1)S(=O)(=O)c1ccc(N)cc1 | - | - | p24 | clinical isolate, multidrug-resistant | 0.3 µM
CCn1nc(Cc2ccccc2)cc1C1CCN(C[C@H]2CN([C@H](CC(C)C)C(=O)O)C[C@@H]2c2ccccc2)CC1 | BaL | - | p24 | - | <0.125 µM
CC1(C)C=Cc2c(ccc3cc(C(=O)c4ccncc4)c(=O)oc23)O1 | IIIB | - | - | - | <0.1 µM
O=C(O)CSc1ccc2[nH]c3ccccc3c(=O)c2c1 | LAV | - | - | - | >100 µM
Cc1cccc(C)c1OCC(=O)N[C@@H](Cc1ccccc1)[C@@H](O)C[C@H](Cc1ccccc1)NC(=O)[C@H](C(C)C)N1CCCNC1=O | 14aPre WT | - | p24 | - | 0.002 µM
COc1cc2c(cc1Cc1cccc(Cl)c1F)c(=O)c(C(=O)O)cn2[C@H](CO)C(C)C | BaL | - | RT activity | - | 0.0021 µM
O=C(O)P(=O)(O)O | 8681 CLADE D CLADE D | - | p24 | - | 17.1 µM
Nc1nc(NC2CC2)c2ncn([C@H]3C=C[C@@H](CO)C3)c2n1 | MDR769 Multidrug-resistant isolate | - | p24 | - | 0.9 µM
Nc1nc2c(ncn2[C@H]2CO[C@@H](CO)O2)c(=O)[nH]1 | LAI | - | RT activity | - | 0.51 µM
Cc1ccc(-c2ccc3c(c2)C=C(C(=O)Nc2ccc(C[N+](C)(C)C4CCOCC4)cc2)CCC3)cc1 | BaL | - | p24 / ELISA | - | 0.02 µM
COc1cccc(OC)c1-c1c2nc(c(-c3c(OC)cccc3OC)c3ccc([nH]3)c(-c3c(OC)cccc3OC)c3nc(c(-c4c(OC)cccc4OC)c4ccc1[nH]4)C=C3)C=C2 | LAV | - | RT activity | - | 41.8 µM
CNc1ncnc2c1ncn2[C@H]1C=C[C@@H](CO)O1 | LAV | - | RT activity | - | 3.43–4.68 µM
Nc1cccc(-c2c3nc(c(-c4cccc(N)c4)c4ccc([nH]4)c(-c4cccc(N)c4)c4nc(c(-c5cccc(N)c5)c5ccc2[nH]5)C=C4)C=C3)c1 | LAV | - | RT activity | - | 11.1 µM
C=CCN(C(=O)OCc1ccccc1)C1CCN(CC[C@](C)(CN(C)S(=O)(=O)c2ccccc2)c2ccccc2)CC1 | YU-2 (M-tropic) | - | p24 | - | <0.075 µM
CC(C)[C@H](N)C(=O)OC[C@@H]1OC[C@H](n2cnc3c(N)nc(N)nc32)O1 | LAI | - | RT activity | - | 1.7 µM
COc1cc(Cn2c(=O)ccn(CC#N)c2=O)cc(OC)c1 | IIIB | - | - | - | 5.64 µM
COc1cccc(C[C@H](NC(=O)c2cccc(O)c2C)[C@H](O)C(=O)N2CSC(C)(C)[C@H]2C(=O)NCc2c(C)cccc2C)c1 | 1002-60 PI-resistant | PR-L10I M46I I54V L63P V82F L90M | RT activity | - | 0.0045 µM
O=c1[nH]cnc2c1ncn2[C@H]1C=C[C@@H](CO)O1 | LAV | - | RT activity | - | >100 µM
C#C[C@]1(CO)O[C@@H](n2cnc3c(N)ncnc32)C[C@@H]1O | ERS104pre | - | p24 | - | 0.013 µM
Cc1cn([C@H]2C[C@H](N=[N+]=[N-])[C@@H](CO)O2)c(=O)[nH]c1=O | IIIB | - | RT activity | - | 0.02 µM
Nc1ccn([C@H]2CC[C@@H](CO)O2)c(=O)n1 | IIIB | - | p24 | - | 0.09 µM
CNc1nc(N)nc2c1ncn2[C@H]1CO[C@@H](CO)O1 | LAI | - | RT activity | - | 1.3 µM
CCOc1ccc(-c2c3nc(c(-c4ccc(OCC)cc4)c4ccc([nH]4)c(-c4ccc(OCC)cc4)c4nc(c(-c5ccc(OCC)cc5)c5ccc2[nH]5)C=C4)C=C3)cc1 | LAV | - | RT activity | - | 20.2 µM
[N-]=[N+]=Nc1nc(N)nc2c1ncn2[C@H]1CO[C@@H](CO)O1 | LAI | - | RT activity | - | 13 µM
CSCSc1cc(Cc2cc(C)cc(C)c2)c(C(C)C)c(=O)[nH]1 | IIIB | - | p24 | - | 0.02 µM
COc1cc(OC)cc(-c2c3nc(c(-c4cc(OC)cc(OC)c4)c4ccc([nH]4)c(-c4cc(OC)cc(OC)c4)c4nc(c(-c5cc(OC)cc(OC)c5)c5ccc2[nH]5)C=C4)C=C3)c1 | LAV | - | RT activity | - | 6.7 µM
Cc1ccnc2c1NC(=O)c1cccnc1N2C1CC1 | IIIB | - | p24 | 16 d | 0.981 µM
Cc1cn([C@H]2C[C@H](N=[N+]=[N-])[C@@H](CO)O2)c(=O)[nH]c1=O | BaL | - | p24 / ELISA | - | 0.018 µM
CCCN(C(=O)OCc1ccccc1)C1CCN(CCC(CN(C)S(=O)(=O)c2ccccc2)c2ccccc2)CC1 | YU-2 (M-tropic) | - | p24 | - | <12.5 µM
Cc1cn([C@H]2C[C@H](N=[N+]=[N-])[C@@H](CO)O2)c(=O)[nH]c1=O | LAV | - | - | - | 0.004 µg/mL
Cc1cn([C@H]2C[C@H](N=[N+]=[N-])[C@@H](CO)O2)c(=O)[nH]c1=O | LAV | - | RT activity | - | 0.003 µM
COC(=O)[C@H](C)NP(=O)(OC[C@@H]1C=C[C@H](n2cc(C)c(=O)[nH]c2=O)O1)Oc1ccc(Br)cc1 | IIIB | - | p24 | - | <0.0097 µM
CCc1cn([C@H]2C=C[C@@H](CO)O2)c(=O)[nH]c1=O | LAV | - | RT activity | - | 75.7 µM

Again, the opening 10 rows:

SMILES | strain or isolate | changes | read by | setting | value
C=CCN(C(=O)OCc1ccc([N+](=O)[O-])cc1)C1CCN(CCC(CN(C)S(=O)(=O)c2ccccc2)c2ccccc2)CC1 | YU-2 (M-tropic) | - | p24 | - | <0.2 µM
Cc1cccc(C)c1C(=O)N1CCC(N2CCN([C@@H](C)c3ccc(Cc4ccc5c(c4)OCO5)cc3)[C@@H](C)C2)CC1 | US-1 | - | - | - | 0.008 µM
O=c1[nH]cc(F)c(=O)[nH]1 | ERS104pre | - | p24 | - | >2 µM
Cc1ccnc2c1NC(=O)c1cccnc1N2C1CC1 | IIIB Subtype B | - | p24 | - | 0.01 µM
Cc1cccc(C)c1OCC(=O)N[C@@H](Cc1ccccc1)[C@@H](O)C[C@H](Cc1ccccc1)NC(=O)[C@H](C(C)C)N1CCCNC1=O | - | - | p24 | multidrug-resistant | >1 µM
Cc1ncnc(C)c1C(=O)N1CCC(C)(N2CCN([C@@H](Cc3ccccc3)c3ccc(C(F)(F)F)cc3)[C@@H](C)C2)CC1 | RU570 Clinical isolates | - | - | - | <0.004 µM
O=c1ccn(Cc2ccccc2)c(=O)n1-c1ccccc1 | IIIB | - | - | - | >216 µM
Cc1cn([C@H]2C[C@H](N=[N+]=[N-])[C@@H](COC(=O)C(=O)O)O2)c(=O)[nH]c1=O | - | - | - | - | 0.025 µg/mL
Nc1ccn([C@@H]2C[Se][C@H](CO)O2)c(=O)n1 | LAV | - | RT activity | - | >100 µM
Nc1ncnc2c1ncn2CCOCP(=O)(O)O | LAI | - | MTT | - | 4.3 µM